Measured values: paper PMC3347997, “Identification of basepairs within Tn5 termini that are critical sfor H-NS binding to the transpososome and regulation of Tn5 transposition”

Experiments:
[1] = tested on: H-NS + Tn5 transposase; test: EMSA; details: transpososome itself forms, no divalent metal, 2 nM 32P-DNA, 200 nM transposase (400 nM for ME 8/9), H-NS normally 23-849 nM added simultaneously, 30 min 37 C, 5% native PAGE, recombinant protein, label: 5' 32P
[2] = target: Tn5 transposase (UniProt Q46731); test: EMSA; details: no divalent metal, 2 nM 32P-DNA, 200 nM transposase (400 nM for ME 8/9), H-NS normally 23-849 nM added simultaneously, 30 min 37 C, 5% native PAGE, recombinant protein, label: 5' 32P
[3] = transpososome assembly, 200 nM transposase

CCCTGCAGGTCGACTCTCTCTTATACACATCTTGAGTGAGTGAGCATGCA / ACATGCATGCTCACTCACTCAAGATGTGTATAAGAGACAGTCGACCTGCAGGG [ME 3 53-bp transposon end]
binding result ([1]; H-NS binding to preformed-type transpososome not detected): no binding
binding result ([2]; transpososome assembly not impaired, 200 nM transposase): binds

CCCTGCAGGTCGACTGACTCTTATACACAAGTTGAGTGAGTGAGCATGCA / ACATGCATGCTCACTCACTCAACTTGTGTATAAGAGTCAGTCGACCTGCAGGG [OE 53-bp transposon end]
binding result [2, 3]: binds

CCCTGCAGGTCGACTGTCTCGCATACACATCTTGAGTGAGTGAGCATGCA / ACATGCATGCTCACTCACTCAAGATGTGTATGCGAGACAGTCGACCTGCAGGG [ME 8/9 53-bp transposon end]
binding result ([1]; H-NS binding to transpososome not detected, transposase 400 nM): no binding
binding result ([2]; transpososome assembly, 400 nM transposase used to obtain roughly equivalent transpososome): binds

CCCTGCAGGTCGACTGTCTCTTATACACATCTTGAGTGAGTGAGCATGCA / ACATGCATGCTCACTCACTCAAGATGTGTATAAGAGACAGTCGACCTGCAGGG [WT ME 53-bp transposon end]
binding result [2, 3]: binds

The exact form of at least one protein or probe is not confirmed. For part of these data: Negatives hold for the conditions tested. For part of these data: At least one verdict rests on a figure or table, not on a statement of the authors.
